# Data published in PubChem BioAssay AID651610 (Broad Institute, 2012).
# This is a selection; strong and weak results do not stand in their true shares. The source made the active and inactive calls.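 The calls were made as follows: active = mean replicate inhibition score of at least 50 and every replicate individually at or above 50; inconclusive = only one of the two criteria met; inactive = mean below 50 and not all replicates reaching 50.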
# Assay: inhibitors of HIV-1 Env-driven cell-cell fusion, primary screen, HeLa-JRFL effector, CEM21 target cells, luciferase (AID 651610);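 also: 0% = plate neutral controls and 100% = maraviroc near 300 nM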
# Settings: at 12.3 µM, active compounds read high
row,SMILES,inhibition
1,CCc1ccc(OP(C)(=O)Nc2cccnc2)cc1 (stereo not drawn),inactive: -0.375%
2,O=[N+]([O-])c1cc([N+](=O)[O-])c(CCNc2ccccc2)c([N+](=O)[O-])c1,inactive: 6.91%
3,CCc1nc2c(n1)c1c(non1O)c1c2no[n+]1[O-],inactive: -54.2%
4,Cc1ccc(NP(=O)(Oc2ccccc2)Oc2ccccc2)nc1,inactive: 5.74%
5,O=C(OCCCN1CCCC1)C(O)(c1ccccc1)C1CCCCC1 (stereo not drawn),inactive: 19.2%
6,O=[N+]([O-])c1cccc2n[nH]nc12,inactive: -47.3%
7,COc1ccccc1OP(C)(=O)Nc1c(C)n(C)n(-c2ccccc2)c1=O (stereo not drawn),inactive: 1.04%
8,COc1ccc(C2=NCC(CBr)S2)cc1 (stereo not drawn),inactive: 6.79%
9,COc1ccc(OP(C)(=O)Nc2ccc(Br)cc2)cc1 (stereo not drawn),inactive: -50.9%
10,CCN(CC)CC(O)COC(=O)C(O)(c1ccccc1)C1CCCCC1 (stereo not drawn),inactive: -117%
11,c1cc(-c2nn[nH]n2)ccc1-c1nn[nH]n1,inactive: 1.45%
12,CC(C)=N/N=C(\N)N[N+](=O)[O-],inactive: 10.5%
13,CN(C)C(=O)c1c([N+](=O)[O-])cc([N+](=O)[O-])cc1[N+](=O)[O-],inactive: 30.3%
14,CCN(/C(=N/P(=O)(N1CCOCC1)N1CCOCC1)N1CCOCC1)c1ccc(OC)cc1,inactive: -6.45%
15,C[N+]1=C2C=CC=CC=C2SC12C([N+](=O)[O-])=CC([N+](=O)[O-])=C[C-]2[N+](=O)[O-] (stereo not drawn),inactive: -55%
16,COc1ccccc1OP(C)(=O)Nc1ccccc1Br (stereo not drawn),inactive: 17.2%
17,Nc1ccc([As](=O)(O)c2ccc(N)cc2)cc1,inactive: 20.2%
18,CC(C)(C)c1ccc(OP(C)(=O)O)cc1,inactive: -1.86%
19,O=C(Nc1cc([As](=O)(O)O)ccc1O)c1ccccc1,inactive: -6.28%
20,Nc1ccc2c(ccc3cccnc32)n1.O=[N+]([O-])c1cc([N+](=O)[O-])c(O)c([N+](=O)[O-])c1,inactive: -228%
21,O=C(O)CNc1ccc([As](=O)(O)O)cc1,inactive: -10.9%

row,SMILES,inhibition
1,COC(=O)C1(C)COP(=O)(Nc2ccccc2)OC1 (stereo not drawn),inactive: -3.31%
2,O=[N+]([O-])c1cccc(NC2=NCC(CBr)S2)c1 (stereo not drawn),inactive: -1.77%
3,O=[N+]([O-])c1ncn(CCn2ncnc2[N+](=O)[O-])n1,inactive: -0.806%
4,CC(C)(C)C(=O)NC(Sc1ccncn1)C(Cl)(Cl)Cl (stereo not drawn),inactive: 2.23%
5,COc1ccc(OP(C)(=O)Nc2ccccc2Br)cc1 (stereo not drawn),inactive: -23%
6,CN(C(=O)Cc1ccc(Cl)c(Cl)c1)[C@H]1CCCC[C@@H]1N1CCCC1,inactive: -9.81%
7,Cc1ccc(NP(=O)(Oc2ccccc2F)Oc2ccccc2F)nc1,inactive: -7.35%
8,O=P(Nc1nc2ccc(Cl)cc2s1)(c1ccccc1)c1ccccc1,inactive: -17.4%
9,CN(C)P(=O)(N(C)C)n1c(Nc2ccccc2)nnc1-c1ccccc1,inactive: 10.3%
10,Cc1cc(C)cc(OP(C)(=O)Nc2cccc(C(F)(F)F)c2)c1 (stereo not drawn),inactive: -10%
11,O=C1C(O)=C([N+](=O)[O-])C(=O)C(O)=C1[N+](=O)[O-],inactive: 1.35%
12,CCCC1OP(N)(=O)OCC1CC (stereo not drawn),inactive: 24.6%
13,CC(=O)Nc1ccc([As](=O)(O)O)cc1,inactive: 1.22%
14,O=C(O)c1ccccc1[As](=O)(O)O,inactive: 11.9%
15,CP(=O)(Nc1ccc(Cl)cc1Cl)Oc1ccccc1 (stereo not drawn),inactive: 7.75%
16,CCCCCCCCCCCCCCCC1C[N+](C)(C)CCOP(C)(=O)O1 (stereo not drawn),inactive: 9.86%
17,CP(=O)(OCCOc1ccccc1)OCCOc1ccccc1,inactive: 20.5%
18,Nc1cccc2ccc([As](=O)(O)O)cc12,inactive: -9.04%
19,CCN(N=Nc1nonc1N)c1nonc1N,inactive: -46.8%
20,CN(C)CCOC(=O)C(O)(c1ccccc1)C1CCCC1 (stereo not drawn),inactive: -30.5%
21,Clc1ccc(Cl)c(NC2=NCC(CBr)S2)c1 (stereo not drawn),inactive: 4.69%

row,SMILES,inhibition
1,Cc1ccc(OP(=O)(Nc2nccs2)Oc2ccc(C)cc2)cc1,inactive: 10.3%
2,COc1ccccc1OP(=O)(Nc1ccc(C)cn1)Oc1ccccc1OC,inactive: 4.29%
3,COc1ccc(OP(C)(=O)Nc2ccccn2)cc1 (stereo not drawn),inactive: -18.1%
4,Cc1ccc(N/C(=N/P(=O)(N2CCOCC2)N2CCOCC2)N2CCOCC2)cc1,inactive: 8.89%
5,CN(C(=O)Cc1ccc(Cl)c(Cl)c1)[C@H]1CCCC[C@H]1N1CCCC1,inactive: 7.37%
6,COc1ccccc1OP(C)(=O)Nc1ccc(Br)cc1 (stereo not drawn),inactive: -21.6%
7,NC(=O)c1cc([N+](=O)[O-])cc([N+](=O)[O-])c1N,inactive: 3.45%
8,COc1ccccc1OP(C)(=O)Nc1ccc(C)cc1C (stereo not drawn),inactive: -23.2%
9,O=C(NC(Sc1ccncn1)C(Cl)(Cl)Cl)c1ccccc1 (stereo not drawn),inactive: 12.6%
10,Nc1cc(N)c2nonc2c1[N+](=O)[O-],inactive: 5.53%
11,Cc1c(NP(C)(=O)Oc2ccc(C(C)C)cc2)c(=O)n(-c2ccccc2)n1C (stereo not drawn),inactive: -69.8%
12,O=[N+]([O-])c1cc([N+](=O)[O-])c(Nc2ccccn2)c([N+](=O)[O-])c1,inactive: -0.15%
13,CC(C)CC(=O)NC(Sc1ccc(Cl)cc1)C(Cl)(Cl)Cl (stereo not drawn),inactive: 7.45%
14,CC(C)c1ccc(OP(C)(=O)Nc2ccc(SC(F)(F)F)cc2)cc1 (stereo not drawn),inactive: 1.55%
15,CC(C)(C)C(=O)NC(Sc1ccccc1)C(Cl)(Cl)Cl (stereo not drawn),inactive: 16.9%
16,CCc1cc(O)c([N+](=O)[O-])c(C)c1[N+](=O)[O-],inactive: -11.4%
17,CCOc1ccc(C2=NCC(CBr)S2)cc1 (stereo not drawn),inactive: 6.87%
18,O=[N+]([O-])c1cc([N+](=O)[O-])c(Nc2ccc(Cl)cc2)c([N+](=O)[O-])c1,inactive: -39.9%
19,O=P1(Nc2nc3ccc(Cl)cc3s2)COc2ccccc2O1 (stereo not drawn),inactive: -94.5%
20,CC(=O)Nc1ccc(Oc2c([N+](=O)[O-])cc([N+](=O)[O-])cc2[N+](=O)[O-])cc1,inactive: 7.43%
21,CC(=O)Nc1ccc([As](=O)(O)O)c(O)c1,inactive: 7.03%
